According to patent US11236378B2 (priority 2015, dated 2022):

How the values were obtained:
wild type flies = assay: Toxicity of PAO on living flies (fly food from embryonic stage)
[1] = system: dissected Drosophila third instar larvae; assay: Toxicity of PAO on dissected third instar larvae; conditions: Schneider's medium, 25° C. overnight
C57BL/6 mice = assay: Toxicity of PAO oral gavage on mice
Aβarc flies = assay: Longevity (lifespan) assay of flies fed PAO; conditions: Aβarc flies fed with PAO (25, 50, 100, 150 μM in food)

O=[As]c1ccccc1 (stereo not shown)
PAO concentration in fly food that neither changed the eclosion rate nor altered the climbing ability (wild type flies): ≤ 200 µM
PAO concentration at which salivary gland cells and CNS neurons turned white, reflecting damage [1]: ≥ 300 nM
PAO concentration with no such effect (no damage) [1]: ≤ 150 nM
survival after gavage (C57BL/6 mice; 2.0 mg/kg body weight once a day Monday through Friday, two consecutive weeks): all five mice survived
survival after gavage (C57BL/6 mice; 4.5 mg/kg body weight once a day for five consecutive days): four mice out of five survived
mortality after gavage (C57BL/6 mice; 18, 10 and 6 mg/kg body weight, two mice per dose, second day): All mice were found dead
Aβarc induced defect in lifespan (premature death) (Aβarc flies): significantly ameliorated these defects in a dose-dependent manner
